Results of unrelated studies side by side (data: NIAID ChemDB).

All rows: tests on isolated targets; species: HIV; protein: Reverse transcriptase

Neighbouring rows are from separate reports. Fold resistance: result on the changed form divided by that on wild type. ICn: concentration for n% inhibition. Blank or dashed fields: not listed here.

smiles	method	mutations	endpoint	value
CC(C)=CCN1Cc2cccc3[nH]c(=S)n(c23)C[C@@H]1C	nucleotide incorporation	-	Ki	1.04 µM
Nc1ccn([C@H]2CC[C@@H](COP(=O)(O)OP(=O)(O)OP(=O)(O)O)O2)c(=O)n1	-	RT-L74V T215Y	Ki	75 µM
Nc1ccn([C@@H]2CC[C@H](COP(=O)(O)OP(=O)(O)OP(=O)(O)O)O2)c(=O)n1	nucleotide incorporation / radiometric	-	Ki	10 µM
CCOCn1c(Sc2ccccc2)c(CC)c(=O)[nH]c1=O	nucleotide incorporation	RT-V60T	fold resistance	1.5
Nc1ncnc2c1ncn2[C@H]1CC[C@@H](COP(=O)(O)OP(=O)(O)OP(=O)(O)O)O1	-	RT-L74V	Ki	18 µM
Nc1ccn([C@H]2CC[C@@H](COP(=O)(O)OP(=O)(O)OP(=O)(O)O)O2)c(=O)n1	nucleotide incorporation / radiometric	RT-V75I F77L F116Y Q151M	Ki	42 µM
Cc1cn([C@H]2CC[C@@H](COP(=O)(O)OP(=O)(O)OP(=O)(O)OP(=O)(O)OC[C@@H]3CC[C@H](n4cc(C)c(=O)[nH]c4=O)O3)O2)c(=O)[nH]c1=O	nucleotide incorporation / radiometric	RT-K65R	fold resistance	5
Nc1ccn([C@H]2CC[C@@H](COP(=O)(O)OP(=O)(O)OP(=O)(O)O)O2)c(=O)n1	nucleotide incorporation / radiometric	RT-Y188L	fold resistance	1.22
Nc1ncnc2c1ncn2[C@H]1CC[C@@H](COP(=O)(O)OP(=O)(O)OP(=O)(O)OP(=O)(O)OC[C@@H]2CC[C@H](n3cnc4c(N)ncnc43)O2)O1	nucleotide incorporation / radiometric	RT-W88G	IC50	>15 µM
Nc1ncnc2c1ncn2[C@H]1CC[C@@H](COP(=O)(O)OP(=O)(O)OP(=O)(O)O)O1	nucleotide incorporation / radiometric	-	IC50	45 µM
Nc1nc2c(ncn2[C@H]2CC[C@@H](COP(=O)(O)OP(=O)(O)OP(=O)(O)O)O2)c(=O)[nH]1	nucleotide incorporation / radiometric	RT-M41L T215Y	IC50	0.082 µM
Nc1ccn([C@@H]2CS[C@H](COP(=O)(O)OP(=O)(O)OP(=O)(O)O)O2)c(=O)n1	radiometric	RT-M184V	Ki	101 µM
Nc1ccn([C@H]2CC[C@@H](COP(=O)(O)OP(=O)(O)OP(=O)(O)OP(=O)(O)OC[C@@H]3CC[C@H](n4ccc(N)nc4=O)O3)O2)c(=O)n1	nucleotide incorporation / radiometric	RT-W88G	fold resistance	4.35
COc1cc(C#N)cc(Oc2c(Cl)ccc(Cc3cc(C)c(=O)[nH]n3)c2F)c1	-	K103N L100I	IC50	0.002 µM

2 of the rows above, restated:

{"smiles": "CCOCn1c(Sc2ccccc2)c(CC)c(=O)[nH]c1=O", "method": "nucleotide incorporation", "mutations": "RT-V60T", "endpoint": "fold resistance", "value": "1.5"}
{"smiles": "Nc1nc2c(ncn2[C@H]2CC[C@@H](COP(=O)(O)OP(=O)(O)OP(=O)(O)O)O2)c(=O)[nH]1", "method": "nucleotide incorporation / radiometric", "mutations": "RT-M41L T215Y", "endpoint": "IC50", "value": "0.082 µM"}